# Measured values taken from article PMC11742723, “The clinical-stage drug BTZ-043 accumulates in murine tuberculosis lesions and efficiently acts against Mycobacterium tuberculosis” (Nature Communications, 2025).
# Several values for one entry are separate records, joined by “and”; a condition that tells them apart may be missing. Equal entries are not always repeated.
# Assay: Impact of γ-irradiation on BTZ-043 in spiked liver mimetic tissue cryosections
# Design: species or system mouse
# Settings: spiked tissue mimetic KW1001 9.7 µg/g, individual cryosections, LC-MS/MS (Figure S3a)
compound,measurement,setting,value
C[C@H]1COC2(CCN(c3nc(=O)c4cc(C(F)(F)F)cc([N+](=O)[O-])c4s3)CC2)O1 [BTZ-043],ng BTZ-043 / mg tissue mimetic section,irradiated,5.86 ng/mg and 7.42 ng/mg and 4.56 ng/mg and 7.66 ng/mg and 7.15 ng/mg and 6.78 ng/mg and 6.12 ng/mg
same,ng BTZ-043 / mg tissue mimetic section,non-irradiated,5.82 ng/mg and 6.00 ng/mg and 6.37 ng/mg and 6.57 ng/mg and 6.6 ng/mg and 5.45 ng/mg
